Measured values from several laboratories, pooled; numbers as filed in NIAID ChemDB.

All rows: growth or infection tests; species: Mycobacterium avium intracellulare

Percent inhibition refers to the dose given; in toxicity tests it is the harm to the cells. An empty or dashed field is not shown. Conditions beyond the fields shown may differ between rows. MIC50, MIC90 and the like: level of inhibition, or share of isolates inhibited.

structure,strain,endpoint,dose,result
NC[C@H]1O[C@H](O[C@H]2[C@H](O)[C@@H](O[C@H]3O[C@H](CO)[C@@H](O)[C@H](N)[C@H]3O)[C@H](N)C[C@@H]2N)[C@H](O)[C@@H](O)[C@@H]1O,-,MBC,-,>32 µg/mL
CC1CCc2cc(F)cc3c(=O)c(C(=O)O)cn1c23,-,MIC,-,82.1 µg/mL
COc1c(N2CCNC(C)C2)c(F)cc2c(=O)c(C(=O)O)cn(C3CC3)c12,20 strains,MIC50,-,6.25 µg/mL
CCn1cc(C(=O)O)c(=O)c2cc(F)c(N3CCNCC3)cc21,7 isolates,MIC50,-,>16 µg/mL
Nc1nc(-n2cc(C(=O)O)c(=O)c3cc(F)c(N4CC(O)C4)c(Cl)c32)c(F)cc1F,20 strains,MIC50,-,25 µg/mL
NC1CCN(c2nc3c(cc2F)c(=O)c(C(=O)O)cn3-c2ccc(F)cc2F)C1,16 isolates,MIC90,-,>100 µg/mL
Cc1c(F)c(N2CCNC(C)C2)cc2c1c(=O)c(C(=O)O)cn2C1CC1,-,MIC,-,1.8 µg/mL
CO[C@H]1/C=C/O[C@@]2(C)Oc3c(C)c(O)c4c(O)c(c(/C=N/N5CCN(C)CC5)c(O)c4c3C2=O)NC(=O)/C(C)=C\C=C\[C@H](C)[C@H](O)[C@@H](C)[C@@H](O)[C@@H](C)[C@H](OC(C)=O)[C@@H]1C,CIPT 140310001,MIC,-,0.1 µg/mL
COc1c(N2C[C@@H]3CCCN[C@@H]3C2)c(F)cc2c(=O)c(C(=O)O)cn(C3CC3)c12,-,MIC,-,0.2 µg/mL
CO[C@H]1/C=C/O[C@@]2(C)Oc3c(C)c(O)c4c(O)c(c5c(c4c3C2=O)NC2(CCN(CC(C)C)CC2)N=5)=NC(=O)/C(C)=C\C=C\[C@H](CO)[C@H](O)[C@@H](C)[C@@H](O)[C@@H](C)[C@H](OC(C)=O)[C@@H]1C,CDC1,MIC,-,0.31 µg/mL
CC1COc2c(N3CCN(C)CC3)c(F)cc3c(=O)c(C(=O)O)cn1c23,16 isolates,MIC50,-,50 µg/mL
NC[C@H]1O[C@H](O[C@H]2[C@H](O)[C@@H](O[C@H]3O[C@H](CO)[C@@H](O)[C@H](N)[C@H]3O)[C@H](N)C[C@@H]2N)[C@H](O)[C@@H](O)[C@@H]1O,N-551 (HIV-),MIC,-,4 µg/mL
N[C@@H]1CN(c2c(F)cc3c(=O)c(C(=O)O)cn([C@@H]4C[C@@H]4F)c3c2Cl)CC12CC2,20 strains,MIC50,-,6.25 µg/mL
C[C@@H]1CN(c2c(F)c(N)c3c(=O)c(C(=O)O)cn(C4CC4)c3c2F)C[C@H](C)N1,20 strains,MIC90,-,12.5 µg/mL
CCC(C)N1CCN(c2cc(=O)c3nc4c(oc3c2)c2c(=O)c3c(O)c(C)c5c(c34)=C(O)[C@@](C)(O/C=C/[C@H](OC)[C@@H](C)[C@@H](OC(C)=O)[C@H](C)[C@H](O)[C@H](C)[C@@H](O)[C@@H](C)/C=C/C=C(/C)C(=O)N2)O5)CC1,31 strains,MIC50,-,0.1 µg/mL
CCn1cc(C(=O)O)c(=O)c2cc(F)c(N3CCNCC3)nc21,16 isolates,MIC50,-,100 µg/mL
CO[C@H]1/C=C/O[C@@]2(C)Oc3c(C)c(O)c4c(O)c(c(/C=N/N5CCN(C)CC5)c(O)c4c3C2=O)NC(=O)/C(C)=C\C=C\[C@H](C)[C@H](O)[C@@H](C)[C@@H](O)[C@@H](C)[C@H](OC(C)=O)[C@@H]1C,20 isolates,MIC50,-,2 µg/mL
CCn1cc(C(=O)O)c(=O)c2cc(F)c(N3CCNCC3)cc21,16 isolates,MIC90,-,>100 µg/mL
CO[C@H]1/C=C/O[C@@]2(C)Oc3c(C)c(O)c4c(=O)c(c5oc6cc(N7CCN(CC(C)C)CC7)cc(=O)c6nc5c4c3=C2O)NC(=O)/C(C)=C\C=C\[C@H](C)[C@H](O)[C@@H](C)[C@@H](O)[C@@H](C)[C@H](OC(C)=O)[C@@H]1C,N-260,MIC,-,0.1 µg/mL
CO[C@H]1/C=C/O[C@@]2(C)Oc3c(C)c(O)c4c(O)c(c(/C=N/N5CCN(C)CC5)c(O)c4c3C2=O)NC(=O)/C(C)=C\C=C\[C@H](C)[C@H](O)[C@@H](C)[C@@H](O)[C@@H](C)[C@H](OC(C)=O)[C@@H]1C,Serovar 8,inhibition,1.25 µg/mL,52%
CN1CCN(c2c(F)cc3c(=O)c(C(=O)O)cn(CCF)c3c2F)CC1,-,MIC,-,8.1 µg/mL
Cc1c(N2C[C@@H](N)C3(CC3)C2)c(F)c(N)c2c(=O)c(C(=O)O)cn(C3CC3)c12,20 strains,MIC90,-,12.5 µg/mL
NNC(=O)c1ccncc1,-,MBC,-,16 µg/mL
CO[C@H]1/C=C/O[C@@]2(C)Oc3c(C)c(O)c4c(=O)c(c5oc6cc(N7CCN(CC(C)C)CC7)cc(=O)c6nc5c4c3=C2O)NC(=O)/C(C)=C\C=C\[C@H](C)[C@H](O)[C@@H](C)[C@@H](O)[C@@H](C)[C@H](OC(C)=O)[C@@H]1C,31 strains,MIC90,-,0.1 µg/mL
CN1CCN(c2c(F)cc3c(=O)c(C(=O)O)cn4c3c2SCC4)CC1,-,MIC,-,11.9 µg/mL
CC[C@H]1OC(=O)[C@H](C)[C@@H](O[C@H]2C[C@@](C)(OC)[C@@H](O)[C@H](C)O2)[C@H](C)[C@@H](O[C@@H]2O[C@H](C)C[C@H](N(C)C)[C@H]2O)[C@](C)(OC)C[C@@H](C)C(=O)[C@H](C)[C@@H](O)[C@]1(C)O,-,MBC,-,16 µg/mL
CN1CCN(c2c(F)cc3c(=O)c(C(=O)O)cn(CCF)c3c2F)CC1,16 isolates,MIC90,-,>100 µg/mL
CC1COc2c(N3CCN(C)CC3)c(F)cc3c(=O)c(C(=O)O)cn1c23,20 isolates,MIC50,-,4 µg/mL
CC[C@@H](CO)NCCN[C@@H](CC)CO,-,MBC,-,16 µg/mL
CCn1cc(C(=O)O)c(=O)c2cnc(N3CCNCC3)nc21,-,MIC,-,95.8 µg/mL